According to publication PMC5462475, “A conformational switch high-throughput screening assay and allosteric inhibition of the flavivirus NS2B-NS3 protease” (PLoS Pathogens, 2017):

Molecular target: linked DENV2 NS2B-NS3 (Dengue virus type 2, UniProt P14340)
Assay: Protein thermal shift assay (PTSA), linked WT DENV2 NS2B-NS3

## O=C1C=CC(=NNc2ccc([N+](=O)[O-])cc2Cl)C=C1C(=O)Nc1cccc(Cl)c1 [NSC135618]
Linked NS2B-NS3 2.5 μM, compound 4.8 μM
  increase of melting temperature (ΔTm) vs DMSO: 2.6 °C
read-out: ΔTm (WT)
  ΔTm at 4.8 µM: 2.64 °C
